Laboratory results: PubChem BioAssay AID624099 (ICCB-Longwood, 2012)
Purpose: 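Knock-downs relieving repression by E2 of an HPV18 LCR luciferase reporter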 (primary screen). Cells: human C33A cervical carcinoma cells (HPV-negative) stably expressing BPV1 E2 and an HPV18 LCR luciferase reporter. Reagents: siRNA pool against human genes, 40 nM. Duration: 72 h. Detection: 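HPV18 LCR reporter light per well, converted to plate-wise z-scores that exclude control wells, and averaged over triplicate plates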. Reading the numbers: mean z-score and z-score: higher = stronger reporter signal, weaker E2 silencing. Active means: 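Mean z ≥ 2 together with z ≥ 2 in two or more of the three replicates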.
The whole screen tested about 21,000 reagents; this is a random part of them. 497 of them (2.4%) were called active. 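Higher z means weaker E2 silencing; only reporter increases were scored, and knock-downs that hurt cell survival may mask genuine repressor factors.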 A number with no mark means an inactive call. Reagents against one gene are numbered here.

gene	pool no.	mean z-score	z-score, replicate A	z-score, replicate B	z-score, replicate C
RUNDC3B	1	0.37	0.06	0.69	0.35
MORN3	1	0.29	0.24	0.72	-0.09
ZBTB47	1	-0.58	-0.62	-0.66	-0.46
RBCK1	1	-0.2	-0.09	-0.29	-0.22
ITPKB	1	1.93	1.77	1.84	2.18
ZIC1	1	0.79	0.88	0.9	0.59
CXCL5	1	-0.35	-0.42	-0.23	-0.41
IL12B	1	-0.11	0.12	-0.22	-0.25
DNAH3	1	0.95	0.95	1.2	0.7
CFAP119	1	-0.62	-0.6	-0.68	-0.57
IL18RAP	1	0.27	0.25	0.23	0.34
TBX3	1	-0.11	-0.37	0.01	0.04
LINC00869	1	-0.1	-0.06	-0.25	0
EVC2	1	2.45 (active)	1.95	2.6	2.8
ARHGAP33	1	-1.16	-1.01	-1.19	-1.29
TPST2	1	1.13	1.32	0.98	1.08
RNASE11-AS1	1	-0.66	-0.52	-1.15	-0.3
SYAP1	1	-0.36	-0.5	-0.14	-0.44
HEXIM1	1	0.07	-0.1	0.04	0.28
GRAP	1	0.21	-0.13	0.32	0.45
PARD6G	1	0.83	0.79	0.68	1.02

Entries listed so far marked active:
gene	pool no.	mean z-score	z-score, replicate A	z-score, replicate B	z-score, replicate C
EVC2	1	2.45 (active)	1.95	2.6	2.8

Further results follow:
gene	pool no.	mean z-score	z-score, replicate A	z-score, replicate B	z-score, replicate C
ESPL1	1	1.6	1.62	1.68	1.5
TRIML1	1	-0.1	0.05	-0.33	-0.02
LILRB4	1	0.79	0.67	0.86	0.84
CHRM1	1	0.33	0.34	0.35	0.31
LAMTOR2	1	0.76	0.74	0.89	0.64
ZSCAN5B	1	-0.87	-0.71	-0.84	-1.07
ZNF326	1	0.71	0.82	0.79	0.52
OAZ3	1	-0.81	-0.73	-0.81	-0.89
RAB32	1	-0.29	-0.43	-0.42	-0.01
TNRC18P3	1	0.76	0.85	1.01	0.44
ARHGAP21	1	-0.68	-0.49	-0.74	-0.8
GPR132	1	-0.71	-0.59	-0.78	-0.75
CPSF3	1	0.89	0.94	0.87	0.88
SETD9	1	1.24	1.49	1.28	0.94
LOC159170 (retired record)	1	-0.04	-0.33	-0.13	0.33
ZFHX4	1	-0.69	-0.38	-0.54	-1.15
SAC3D1	1	0.05	0.12	0.09	-0.07
CCDC92	1	0.04	-0.02	0.04	0.11
SELENON	1	-0.31	-0.22	-0.27	-0.43
ARMCX4	1	-1.51	-1.7	-1.22	-1.6
ARMCX4	2	-0.87	-0.45	-0.81	-1.36
RPS6KA6	1	-0.69	-0.86	-0.5	-0.72
CASQ1	1	-0.54	-0.65	-0.42	-0.56
ZNF140	1	0.3	0.29	0.36	0.26
WIPI1	1	-0.34	-0.27	-0.53	-0.22
DAPK2	1	-0.48	-0.19	-0.9	-0.34
CCDC141	1	-1	-0.71	-1.23	-1.07
SMARCB1	1	-0.95	-0.94	-0.89	-1.01
LINC01121	1	0.29	0.68	-0.2	0.39
CCSER2	1	0.61	0.72	0.64	0.46
COL6A2	1	-0.62	-0.58	-0.47	-0.81
CABIN1	1	0.48	0.73	0.35	0.37
HP	1	0.54	0.64	0.58	0.39
COXFA4	1	-1.02	-1.24	-1.01	-0.82
HTRA3	1	-0.32	-0.13	-0.23	-0.59
ZZZ3	1	0.36	0.41	0.37	0.28
